A mixed list of measured activities; the numbers were collected in NIAID ChemDB.

Shared fields: tests in culture; organism: Mycobacterium tuberculosis

Percent inhibition refers to the dose given; in toxicity tests it is the harm to the cells. A number after MIC or MFC names an inhibition level or a share of isolates. An empty or dashed field is not shown. Rows are shuffled and stem from different studies. MIC bound: limit read from a one-dose screen. a–b is a range or a potency band. ECn: concentration that inhibits the pathogen or its effect by n%.

structure	setting	endpoint	dose	mutations	strain or isolate	cell line	method	value
O=C(O)CCCC/C=C/CCCCCCC1C=CCC1	-	inhibition	12.5 µg/mL	-	H37Rv	-	BACTEC	16%
CCCCNc1nc(-c2ccc(OC)cc2)c(C#N)c(=O)[nH]1	-	MIC	-	-	H37Ra	-	-	>50 µg/mL
CC1(C)O[C@H]2OC([C@H](CCO)NCCCCCCCCCCCCN[C@@H](CCO)C3O[C@@H]4OC(C)(C)O[C@@H]4[C@H]3OCc3ccccc3)[C@H](OCc3ccccc3)[C@H]2O1	-	MIC	-	-	H37Rv	-	-	12.5 µg/mL
COc1ccc2c(c1)c(CC(=O)NN)c(C)n2C(=O)c1ccc(Cl)cc1	-	inhibition	0.125 µg/mL	-	-	-	-	60%
CN1CC2CCC(CC1=O)N2C	-	inhibition	12.5 µg/mL	-	H37Rv	-	BACTEC	18%
COc1ccc(C(=O)/C=C/c2ccc(F)cc2)c(F)c1	14 d	MIC	-	-	H37Rv	-	resazurin	32 µg/mL
Cc1c(N2CC3CCCNC3C2)c(F)cc2c(=O)c(C(=O)O)cn([C@@H]3C[C@@H]3F)c12	-	MIC	-	-	56 (RFP-resistant)	-	-	1.56 µg/mL
CCC(C)c1cc(C)cc(OC(=O)c2ccc(N)cc2O)c1	-	MIC	-	-	H37Rv (streptomycin-resistant)	-	-	5 µg/mL
CC(C)(C)c1ncc(CCCN=C(N)N)[nH]c1=O	-	MIC bound	-	-	H37Rv	-	BACTEC	≤12.5 µg/mL
CCC1CN(c2c(F)cc3c(=O)c(C(=O)O)cn([C@@H]4C[C@@H]4F)c3c2OC)CCN1	-	MIC	-	-	43 (RFP-susceptible)	-	-	1 µg/mL
Nc1ccc(-c2nnc(SCc3ccc(Cl)cc3Cl)n2C2CCCCC2)cc1	-	EC50	-	-	H37Rv	-	-	<6.25 µg/mL
O=S1(=O)CS(=O)(=O)OCCCCCO1	-	inhibition	12.5 µg/mL	-	H37Rv	-	BACTEC	-6%
Cn1c(SCc2ccc(Cl)cc2Cl)nnc1-c1ccc(N)cc1	-	inhibition	6.25 µg/mL	-	H37Rv	-	-	<50%
CCN(CC)CCCC(C)Nc1nc(-c2ccc(N(C)C)cc2)c(C#N)c(=O)[nH]1	-	MIC	-	-	H37Ra	-	-	>50 µg/mL
CC(C)(C)c1ncc(C(N)=S)nc1Sc1ccccc1	-	inhibition	12.5 µg/mL	-	H37Rv	-	-	<90%
COc1cccc(/C=C/C(=O)c2ccc(F)cc2)c1F	21 d	MIC	-	-	H37Rv	-	MTT	32 µg/mL
CO[C@H]1/C=C/O[C@@]2(C)Oc3c(C)c(O)c4c(O)c(c(/C=N/N5CCN(C)CC5)c(O)c4c3C2=O)NC(=O)/C(C)=C\C=C\[C@H](C)[C@H](O)[C@@H](C)[C@@H](O)[C@@H](C)[C@H](OC(C)=O)[C@@H]1C	-	MIC	-	-	ss18b	-	resazurin	0.625 µg/mL
COc1ccc2c(c1)N(C[C@H](C)CN(C)C)c1ccccc1S2	-	inhibition	12.5 µg/mL	-	H37Rv	-	BACTEC	33%
O=C(CCC(=O)c1ccccc1)NC[C@H]1CN(c2ccc(N3CCOCC3)c(F)c2)C(=O)O1	-	MIC	-	-	10 clinical isolates resistant	-	-	>16 µg/mL
O=C(NC(N1CCN(c2cc3c(cc2F)c(=O)c(C(=O)O)cn3C2CC2)CC1)(C(F)(F)F)C(F)(F)F)c1ccccc1	-	MIC bound	-	-	H37Rv	-	resazurin	<6.25 µg/mL
COc1ccc(C(=O)/C=C/c2ccc(F)cc2Cl)cc1	7 d	MIC	-	-	H37Rv	-	resazurin	32 µg/mL
Cc1ccc(-c2nc(N3CCN(c4ccccc4)CC3)[nH]c(=O)c2C#N)cc1	-	MIC	-	-	H37Ra	-	-	>50 µg/mL
O=C(CCC(=O)c1ccc(Cl)cc1)NC[C@H]1CN(c2ccc(-n3cncn3)c(F)c2)C(=O)O1	-	MIC	-	-	10 clinical isolates resistant	-	-	4–16 µg/mL
CC1CCN(c2sc([N+](=O)[O-])cc2[N+](=O)[O-])CC1	-	MIC	-	-	ss18b	-	resazurin	6.25 µg/mL
CN(C)c1ccc(-c2nc(N3CCN(c4ccccc4)CC3)[nH]c(=O)c2C#N)cc1	-	MIC	-	-	H37Ra	-	-	>50 µg/mL
Cn1c(SCc2ccccc2)nnc1-c1ccc(N)cc1	-	EC50	-	-	H37Rv	-	-	>6.25 µg/mL
O=C(/C=C/c1ccccc1)c1ccc(O)cc1	21 d	MIC	-	-	H37Rv	-	MTT	32 µg/mL
COCCCn1c(-c2ccc(Cl)cc2)nn2c(=O)c3ccccc3nc2c1=O	-	MIC bound	-	-	H37Rv	-	BACTEC	>12.5 µg/mL
O=C(c1ccc(O)cc1)N1N=C(c2ccccc2)CC1c1ccccc1Cl	-	MBC	-	-	H37Ra	-	visual reading	532 µM
Cc1c(F)c(N2CCNC(C)C2)cc2c1c(=O)c(C(=O)O)cn2C1CC1	-	Mean MIC	-	-	206 isolates (susceptible)	-	-	0.782 µg/mL
COc1ccc(C2CC(c3ccccc3)=NN2C(=O)c2ccc(O)cc2)cc1	-	MIC	-	-	H37Ra	-	MTT	>535 µM
CC1CCCN(C(=S)S)C1.CC1CCCNC1	-	MIC	-	-	H37Rv	-	BACTEC	3.13 µg/mL
CCCCc1ncc(C(N)=S)nc1SCCC	-	MIC	-	-	H37Rv	-	-	>12.5 µg/mL
O=C(/C=C/c1ccccc1)c1ccccc1	7 d	MIC	-	-	H37Rv	-	resazurin	16 µg/mL
CCCCSc1nc(C(N)=S)cnc1CCCC	-	MIC	-	-	H37Rv	-	-	>12.5 µg/mL
Nc1nc(NCCCc2ccccc2)cc(=O)[nH]1	-	inhibition	12.5 µg/mL	-	H37Rv	-	BACTEC	3%
Nc1ccc(-c2nnc(SCc3ccc([N+](=O)[O-])cc3)n2-c2ccccc2)cc1	-	EC50	-	-	H37Rv	-	-	>6.25 µg/mL
Cc1cc2c(cc1Cl)Sc1ncc(C)n1S2(=O)=O	-	inhibition	6.25 µg/mL	-	H37Rv	-	resazurin	16%
Cc1ccc(C2CC(c3ccccc3)=NN2C(=S)Nc2ccccc2)cc1	-	MIC	-	-	H37Ra	-	MTT	17 µM
CC(=O)N[C@H]1[C@@H](OCc2ccccc2)O[C@H](CO)[C@@H](O)[C@@H]1OC(C)C(=O)NC(C)C(=O)NC(CCC(=O)NCCCCNc1c2ccccc2nc2cccc([N+](=O)[O-])c12)C(N)=O	-	inhibition	6.25 µg/mL	-	H37Rv	-	resazurin	54%
N#Cc1c(-c2cccnc2)nc(NCc2ccccc2)[nH]c1=O	-	MIC	-	-	H37Ra	-	-	>50 µg/mL
Cn1c(SCc2ccc(Cl)cc2Cl)nnc1-c1ccc(N=Cc2ccc(F)cc2)cc1	-	EC50	-	-	H37Rv	-	-	>6.25 µg/mL
Cc1cccc(Cc2ccc(Cl)cc2)c1O	-	MIC	-	-	H37Rv	VERO	BACTEC	>6.25 µg/mL
COc1ccc(C2CC(c3ccccc3)=NN2C(=S)Nc2ccccc2)cc1	-	MBC	-	-	H37Ra	-	visual reading	>517 µM
CC1(C)C[C@H]2[C@@H](C1)[C@@H](C(CCO)NCCCCCCCCCCCCNC(CCO)[C@H]1O[C@@H]3CC(C)(C)C[C@@H]3[C@H]3CC(C)(C)C[C@H]31)O[C@@H]1CC(C)(C)C[C@H]21	-	MIC	-	-	H37Rv	-	-	25 µg/mL
C=CCn1c(SCc2ccccc2)nnc1-c1ccc(N)cc1	-	EC50	-	-	H37Rv	-	-	>6.25 µg/mL
CCCCCCCCCC(=O)N[C@H]1[C@H](Oc2c3cc4cc2Oc2ccc(cc2Cl)[C@@H](O[C@@H]2O[C@H](CO)[C@@H](O)[C@H](O)[C@H]2NC(C)=O)[C@@H]2NC(=O)[C@H](NC(=O)[C@@H]4NC(=O)[C@H]4NC(=O)[C@@H](Cc5ccc(c(Cl)c5)O3)NC(=O)[C@H](N)c3ccc(O)c(c3)Oc3cc(O)cc4c3)c3ccc(O)c(c3)-c3c(O[C@H]4O[C@H](CO)[C@@H](O)[C@H](O)[C@@H]4O)cc(O)cc3[C@H](C(=O)O)NC2=O)O[C@H](CO)[C@@H](O)[C@@H]1O	-	MIC	-	-	L1914	-	-	64 µg/mL
S=C(Nc1ccccc1)N1N=C(c2ccccc2)CC1c1ccc(Cl)cc1Cl	-	MBC	-	-	H37Ra	-	visual reading	>471 µM
OC[C@H]1N[C@H](CO[C@@H]2O[C@H](CO)[C@@H](O)[C@H](O)[C@H]2O)[C@H](O)[C@@H](O)[C@@H]1O	-	MIC bound	-	-	H37Rv	-	BACTEC	>12.5 µg/mL
CC(C)Cc1ccc(C(=O)CCC(=O)NC[C@H]2CN(c3ccc(-n4cncn4)c(F)c3)C(=O)O2)cc1	-	MIC	-	-	ATCC 27294	-	-	2 µg/mL
Cc1cc(O)c2c(c1)C(=O)C=CC2=O	-	MIC	-	-	Isoniazid/rifampicin-resistant	-	-	50 µg/mL
Nc1ccc(C(=O)OCc2ccccc2)c(O)c1	-	MIC	-	-	H37Rv	-	-	0.75 µg/mL
Cc1ncc([N+](=O)[O-])n1C	-	MIC bound	-	-	H37Rv	-	resazurin	>6.25 µg/mL
CC(C)(C)c1ccc(C(=O)CCC(=O)NC[C@H]2CN(c3ccc(N4CCOCC4)c(F)c3)C(=O)O2)cc1	-	MIC	-	-	ATCC 27294	-	-	1 µg/mL
CCCCCCCCNc1nc(-c2ccc(F)cc2)c(C#N)c(=O)[nH]1	-	MIC	-	-	H37Ra	-	-	>50 µg/mL
O=[N+]([O-])c1cn2c(n1)OC[C@H](OCc1ccc(OC(F)(F)F)cc1)C2	-	MIC	-	-	H37Rv	-	resazurin	0.078 µg/mL
CC1(C)C[C@H]2[C@@H](C1)[C@@H](C(CCO)NCCCCCCCCCNC(CCO)[C@H]1O[C@@H]3CC(C)(C)C[C@@H]3[C@H]3CC(C)(C)C[C@H]31)O[C@@H]1CC(C)(C)C[C@H]21	-	MIC	-	-	H37Rv	-	-	>25 µg/mL
COc1ccc(-c2nc(NCCN3CCOCC3)[nH]c(=O)c2C#N)cc1	-	MIC	-	-	H37Ra	-	-	>50 µg/mL
CCCSc1nc(C(N)=O)cnc1C(C)(C)C	-	MIC	-	-	H37Rv	-	-	>12.5 µg/mL
O=C(Nc1cc2c(oc1=O)CCCCC2)c1cnccn1	-	MIC bound	-	-	H37Rv	-	BACTEC	>6.25 µg/mL
CCOC(=O)C[C@H](NCCCCCCCN[C@@H](CC(=O)OCC)C1O[C@@H]2OC(C)(C)O[C@@H]2[C@H]1OCc1ccccc1)C1O[C@@H]2OC(C)(C)O[C@@H]2[C@H]1OCc1ccccc1	-	MIC	-	-	H37Rv	-	-	25 µg/mL
NC1CN(c2c(F)cc3c(=O)c(C(=O)O)cn(C4CC4)c3c2Cl)CC12CC2	-	MIC	-	-	68 (RFP-susceptible)	-	-	0.1 µg/mL
CSc1nc(C(N)=S)cnc1C(C)(C)C	-	inhibition	12.5 µg/mL	-	H37Rv	-	-	72%
O=C(c1ccc(O)cc1)N1N=C(c2ccccc2)CC1c1ccc(Cl)cc1Cl	-	MBC	-	-	H37Ra	-	visual reading	488 µM
CC1(C)C[C@H]2[C@@H](C1)[C@@H](C(CCO)NCCCCCCCNC(CCO)[C@H]1O[C@@H]3CC(C)(C)C[C@@H]3[C@H]3CC(C)(C)C[C@H]31)O[C@@H]1CC(C)(C)C[C@H]21	-	MIC	-	-	H37Rv	-	-	12.5 µg/mL
C=C1C(=O)N[C@@H](CC(C)C)C(=O)N[C@H](CC(C)C)C(=O)N[C@H](C(=O)O)[C@H](C)C(=O)N[C@H](CCCN=C(N)N)C(=O)N[C@@H](/C=C/C(C)=C/[C@H](C)[C@H](Cc2ccccc2)OC)[C@@H](C)C(=O)N[C@@H](C(=O)O)CCC(=O)N1C	-	MIC	-	Isoniazid-resistant	-	-	resazurin	26.5 µM
COc1ccc(C(=O)/C=C/c2ccccc2Cl)c(F)c1	7 d	MIC	-	-	H37Rv	-	resazurin	32 µg/mL
Cc1ccc(-n2c(SCc3ccc(Cl)cc3Cl)nnc2-c2ccc(N=Cc3ccc(O)cc3)cc2)cc1	-	inhibition	6.25 µg/mL	-	H37Rv	-	-	50–59%
C[C@H]1COc2c(N3CCN(C)CC3)c(F)cc3c(=O)c(C(=O)O)cn1c23	-	MIC50	-	-	44 isolates (resistant)	-	-	0.5 µg/mL
NNC(=O)CCCCC(=O)NN	-	EC50	-	-	-	-	-	<0.125 µg/mL
N#Cc1c(-c2ccc(F)cc2)nc(NC2CCCCC2)[nH]c1=O	-	MIC	-	-	H37Ra	-	-	>50 µg/mL
O=[N+]([O-])c1cc(Cl)c2[nH]c3c(Cl)cc([N+](=O)[O-])cc3c2c1	-	MIC bound	-	-	H37Rv	-	BACTEC	≤12.5 µg/mL
CCCSc1nc(C(N)=S)cnc1C(C)(C)C	-	MIC	-	-	H37Rv	-	-	>12.5 µg/mL
Cn1c(=O)c2[nH]c(CCCCCCCc3nc4ccccc4[nH]3)nc2n(C)c1=O	-	MIC bound	-	-	-	-	resazurin	<6.25 µg/mL
NC[C@H]1OB2OCCOC3C=CC(c4ccccc4)=C1C23	-	EC50	-	-	H37Rv	-	resazurin / fluorescence	8.75 µM
O=C1C(Cl)=C(n2ccnc2)C(=O)c2ccccc21	-	inhibition	12.5 µg/mL	-	H37Rv	-	BACTEC	3%
CC[C@H]1OC(=O)[C@H](C)C(=O)[C@H](C)[C@@H](O[C@@H]2O[C@H](C)C[C@H](N(C)C)[C@H]2O)[C@](C)(OC)C[C@@H](C)C(=O)[C@H](C)[C@H]2N(NCCCc3ccnc4ccccc34)C(=O)O[C@]12C	-	MIC	-	-	Isolate 900216	-	-	10 µg/mL
C1CNCCN1.S=C(S)N1CCNCC1	-	MIC bound	-	-	H37Rv	-	BACTEC	>12.5 µg/mL
CCSc1nc(C(N)=O)cnc1C(C)(C)C	-	MIC	-	-	H37Rv	-	-	>12.5 µg/mL
Cc1cc(C)n2nc(N)c(C#N)c2c1C#N	-	MIC bound	-	-	H37Rv	-	resazurin	>6.25 µg/mL
CC1CC(C)CN(c2sc([N+](=O)[O-])cc2[N+](=O)[O-])C1	-	MIC	-	-	ss18b	-	resazurin	6.25 µg/mL